Target: NS3a (inactive), Avi-His6-NS3a S139A (hepatitis C virus)
Experiment: pulldown: biotinylated NS3a inactive on streptavidin-agarose beads, 5 µM ANR-GST, anti-GST immunoblot; DMSO against 10 µM danoprevir

B1: ANR-GST (His6-ANR-GST) (other)
chain: MHHHHHHGSGTGSGELGRLVYLLDGPGYDPIHSDGTGSSPILGYWKIKGLVQPTRLLLEYLEEKYEEHLYERDEGDKWRNKKFELGLEFPNLPYYIDGDVKLTQSMAIIRYIADKHNMLGGCPKERAEISMLEGAVLDIRYGVSRIAYSKDFETLKVDFLSKLPEMLKMFEDRLCHKTYLNGDHVTHPDFMLYDALDVVLYMDPMCLDAFPKLVCFKKRIEAIPQIDKYLKSSKYIAWPLQGWQATFGGGDHPPKSDLVPR
notes: also called ANR-GST fusion
  binding result: binds

— patent publication US20220025003A1 (University of Washington, published 2022)
